Compound potency records, mixed from different reports. Data source: NIAID ChemDB in PubChem.

Common to all: cytotoxicity tests; cell line: MT-4; measure: CC50

Conditions beyond the fields shown may differ between rows. CCn is the concentration with n% toxicity to the cells. An empty or dashed field is not shown.

CC(=O)OC[C@H]1O[C@@H](n2c(-c3ccccc3)cc(-c3ccco3)c(C#N)c2=O)[C@H](OC(C)=O)[C@@H](OC(C)=O)[C@H]1OC(C)=O ; method: XTT ; value: >11.9 µM
C[C@@]1(n2ccc(=O)[nH]c2=O)CO[C@@H](CO)O1 ; method: MTT ; value: >100 µM
CCOP(=O)(OCC)C(N[C@@H](Cc1ccccc1)[C@@H](O)CN(CC(C)C)S(=O)(=O)c1ccc(OC)cc1)c1ccc([N+](=O)[O-])cc1 ; method: MTT ; value: 3.94 µg/mL
C[C@]1(n2ccc(N)nc2=O)CO[C@@H](CO)O1 ; method: MTT ; value: >100 µM
O=C1N(Cc2ccccc2Cl)c2cccn2S(=O)(=O)N1Cc1ccccc1 ; method: MTT ; value: 291 µM
C#C[C@]1(CO)O[C@@H](n2cc(Br)c3c(N)ncnc32)C[C@@H]1O ; method: ATP / luminescence ; value: >8.4 µM
CC(=O)OC[C@H]1O[C@@H](n2c(-c3ccc(C)cc3)cc(-c3ccccc3)c(C#N)c2=O)[C@H](OC(C)=O)[C@@H](OC(C)=O)[C@H]1OC(C)=O ; method: XTT ; value: >16.5 µM
Nc1nc(=O)n([C@H]2C[C@H](F)[C@@H](CO)O2)cc1Br ; value: 20 µM
N#CCN1C(=O)N(Cc2ccccc2)S(=O)(=O)n2cccc21 ; method: MTT ; value: 187 µM
COc1ccc(-c2cc(-c3ccco3)c(C#N)c(=O)n2[C@@H]2O[C@H](COC(C)=O)[C@H](OC(C)=O)[C@H](OC(C)=O)[C@H]2OC(C)=O)cc1 ; method: XTT ; value: >11.6 µM
Cn1cc(C(=O)O)c(=O)c2ccc(N3CCN(c4nc5ccccc5s4)CC3)nc21 ; method: MTT ; value: 24.7 µg/mL
CCOC(=O)c1cc(O)c(O)c(O)c1 ; method: MTS ; value: >200 µM
CN(C)S(=O)(=O)N(C)C1COCCn2c1nc(C(=O)NCc1ccc(F)cc1)c(O)c2=O ; method: microscopy ; value: >1 µM
C#C[C@]1(CO)O[C@@H](n2cc(F)c3c(N)ncnc32)C[C@@H]1O ; method: ATP / luminescence ; value: >8.4 µM
COCP(=O)(O)OC[C@H]1O[C@@H](n2cc(C)c(=O)[nH]c2=O)C[C@@H]1N=[N+]=[N-] ; method: MTT ; value: >500 µM
CCOP(=O)(OCC)C(N[C@@H](Cc1ccccc1)[C@@H](O)CN(CC(C)C)S(=O)(=O)c1ccc(OC)cc1)c1ccccn1 ; method: MTT ; value: 13.93 µg/mL
Cc1cn([C@@]2(C)CO[C@@H](CO)O2)c(=O)[nH]c1=O ; method: MTT ; value: >100 µM
[N-]=[N+]=N[C@H]1C[C@H](n2cc(Br)c(=O)[nH]c2=O)O[C@@H]1CO ; value: 141 µM
COc1cc2c(c3oc(=O)c(COC(C)=O)c(C)c13)[C@@H](OC(=O)C13CCC(C)(C(=O)O1)C3(C)C)[C@@H](OC(=O)C13CCC(C)(C(=O)O1)C3(C)C)C(C)(C)O2 ; method: MTT ; value: >67.75 µM
CC(C)N1CCn2c(nc(C(=O)NCc3ccc(F)cc3)c(O)c2=O)C(N(C)C(=O)C(=O)N(C)C)C1 ; method: microscopy ; value: >1 µM
C#C[C@]1(CO)O[C@@H](c2cnn3c(N)ncnc23)C[C@@H]1O ; method: ATP / luminescence ; value: >8.4 µM
O=S(=O)(O)O.OCC1OC(OC2C(O)C(CO)OC(OC3C(O)C(CO)OC(OC4C(O)C(CO)OC(OC5C(O)C(O)OC(CO)C5O)C4O)C3O)C2O)C(O)C(O)C1O ; value: 247 µg/mL
O=C1N(Cc2ccccc2)c2cccn2S(=O)(=O)N1Cc1cccc(F)c1 ; method: MTT ; value: 288 µM
CCN(CC)CCN1CCn2c(nc(C(=O)NCc3ccc(F)cc3)c(O)c2=O)C1(C)C ; method: microscopy ; value: >1 µM
Cc1c(C[N+](=O)[O-])c(=O)oc2c3c(ccc12)OC(C)(C)[C@H](OC(=O)C12CCC(C)(C(=O)O1)C2(C)C)[C@@H]3OC(=O)C12CCC(C)(C(=O)O1)C2(C)C ; method: MTT ; value: >71.94 µM
CCOP(=O)(OCC)C(N[C@@H](Cc1ccccc1)[C@H](O)CN(CC(C)C)S(=O)(=O)c1ccc(OC)cc1)c1ccccc1 ; method: MTT ; value: 13.25 µg/mL
c1cc(CNCc2ccc(CN3CCCNCCNCCCNCC3)cc2)ccn1 ; value: >250 µg/mL
CC1(C)c2nc(C(=O)NCc3ccc(F)cc3)c(O)c(=O)n2CN1Cc1cccnc1 ; method: microscopy ; value: >1 µM
CC(=O)OC[C@H]1O[C@@H](n2c(-c3ccc(C)cc3)cc(-c3ccccc3)c(C#N)c2=O)[C@H](OC(C)=O)[C@@H](OC(C)=O)[C@@H]1OC(C)=O ; method: XTT ; value: >11.7 µM
Cc1cn([C@H]2C[C@H](N=[N+]=[N-])[C@@H](CO)O2)c(=O)[nH]c1=O ; method: ATP / luminescence ; value: >8.4 µM
N#Cc1c(-c2ccccc2)cc(-c2ccccc2)n([C@@H]2O[C@H](CO)[C@@H](O)[C@H](O)[C@H]2O)c1=O ; method: XTT ; value: >21.4 µM
C#C[C@]1(O)[C@H]2OC[C@]1(CO)O[C@H]2n1ccc(=O)[nH]c1=O ; method: MTT ; value: ≥30 µM
CCOP(=O)(N[C@@H](Cc1ccccc1)[C@H](O)CN(CC(C)C)S(=O)(=O)c1ccc(OC)cc1)OCC ; method: MTT ; value: 64.5 µg/mL
Cc1ccnc2c1NC(=O)c1cccnc1N2C1CC1 ; method: MTT ; value: >4 µg/mL
CCOP(=O)(OCC)C(N[C@@H](Cc1ccccc1)[C@H](O)CN(CC(C)C)S(=O)(=O)c1ccc(OC)cc1)C(C)C ; method: MTT ; value: 11.52 µg/mL
CC1(C)c2nc(C(=O)NCc3ccc(F)cc3)c(O)c(=O)n2CCN1CC(N)=O ; method: microscopy ; value: >1 µM
CN1C(=O)C(c2cc(Cl)c(O)c(Cl)c2)NC(=O)[C@@H]2NC(=O)C(c3cc(Cl)c(O)c(Cl)c3)NC(=O)[C@H](NC(=O)C(=O)c3cc(Cl)c(O)c(Cl)c3)Cc3c[nH]c4c(cccc34)-c3cc2cc(c3O)Oc2ccc(cc2)CC1C(=O)NC(C(=O)O)c1ccc(O)cc1 ; value: 530 µM
C#C[C@]1(CO)O[C@@H](n2ccc3c(N)ncnc32)C[C@@H]1O ; method: ATP / luminescence ; value: >8.4 µM
CN(Cc1ccc(CN2CCCNCCNCCCNCC2)cc1)Cc1ccccn1 ; value: >250 µg/mL
Cc1cn([C@H]2C[C@H](N=[N+]=[N-])[C@@H](CO)O2)c(=O)[nH]c1=O ; method: MTT ; value: >187 µM
CCOP(=O)(OCC)C(N[C@@H](Cc1ccccc1)[C@@H](O)CN(CC(C)C)S(=O)(=O)c1ccc(OC)cc1)c1ccc(C)cc1 ; method: MTT ; value: 4.94 µg/mL
O=C1N(Cc2ccc(Cl)cc2Cl)c2cccn2S(=O)(=O)N1Cc1cccc(F)c1 ; method: MTT ; value: 249 µM
Nc1ccn(CCN2C(=O)CSC2COCc2ccccc2)c(=O)n1 ; value: ~100 µM
Nc1ncnc2c1ncn2[C@@H]1C=C[C@H](CO)[C@H]1CO ; value: >100 µg/mL
Cc1c(CC#N)c(=O)oc2c3c(ccc12)OC(C)(C)[C@H](OC(=O)C12CCC(C)(C(=O)O1)C2(C)C)[C@@H]3OC(=O)C12CCC(C)(C(=O)O1)C2(C)C ; method: MTT ; value: >74.07 µM
C#C[C@]1(CO)O[C@@H](n2cc(I)c3c(N)ncnc32)C[C@@H]1O ; method: ATP / luminescence ; value: >8.4 µM
O=C1N(Cc2ccc(Cl)cc2Cl)c2cccn2S(=O)(=O)N1Cc1ccccc1 ; method: MTT ; value: 273 µM
N#C[C@]1(CO)O[C@@H](n2ccc3c(N)ncnc32)C[C@@H]1O ; method: ATP / luminescence ; value: >8.4 µM
CC(=O)OC[C@H]1O[C@@H](n2c(-c3ccccc3)cc(-c3ccccc3)c(C#N)c2=O)[C@H](OC(C)=O)[C@@H](OC(C)=O)[C@@H]1OC(C)=O ; method: XTT ; value: >16.5 µM

The last 6 rows once more:

smiles,method,value
Nc1ncnc2c1ncn2[C@@H]1C=C[C@H](CO)[C@H]1CO,,>100 µg/mL
Cc1c(CC#N)c(=O)oc2c3c(ccc12)OC(C)(C)[C@H](OC(=O)C12CCC(C)(C(=O)O1)C2(C)C)[C@@H]3OC(=O)C12CCC(C)(C(=O)O1)C2(C)C,MTT,>74.07 µM
C#C[C@]1(CO)O[C@@H](n2cc(I)c3c(N)ncnc32)C[C@@H]1O,ATP / luminescence,>8.4 µM
O=C1N(Cc2ccc(Cl)cc2Cl)c2cccn2S(=O)(=O)N1Cc1ccccc1,MTT,273 µM
N#C[C@]1(CO)O[C@@H](n2ccc3c(N)ncnc32)C[C@@H]1O,ATP / luminescence,>8.4 µM
CC(=O)OC[C@H]1O[C@@H](n2c(-c3ccccc3)cc(-c3ccccc3)c(C#N)c2=O)[C@H](OC(C)=O)[C@@H](OC(C)=O)[C@@H]1OC(C)=O,XTT,>16.5 µM